In data set [1] the test system is CVB-3. The data set is described as follows: Anticoxsackieviral HI-HeLa Cell Culture Assay (XTT dye reduction). The format is cell-based, Coxsackie strain B-3 (CVB-3). Particulars: therapeutic index = CC50 divided by EC50; CVB-3, HI-HeLa. The protocol: Specifically, HI-HeLa cells were infected wtih […] at a multiplicity of infection (m.o.i.) of 0.08 or mock-infected with medium only. Infected or mock-infected cells were resuspended at 8×10^5 cells per mL and incubated with appropriate concentrations of compound. One day later, XTT/PMS were added to test plates and the amount of formazan produced was quantified spectrophotometrically at 450/650 nm. […] The therapeutic index (TI) was calculated by dividing the CC50 by the EC50.
The Coxsackie strain B-3 (CVB-3) was purchased from American Type Culture Collection (ATCC). Virus stocks were propgated and antiviral assays were performed in Hi-HeLa cells (ATCC). Cells were grown in Minimal Essential Medium with 10% fetal bovine serum.

The test system of data set [2] is HRV-14. The data set is described as follows: Antirhinoviral HI-HeLa Cell Culture Assay (Cell Protection Assay, XTT dye reduction). The format is cell-based, human rhinovirus (HRV) serotype-14. Particulars: therapeutic index = CC50 divided by EC50; HRV-14, HI-HeLa. In short, it runs like this:
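Protection measured via XTT dye reduction (450/650 nm) two days after compound treatment of HI-HeLa cells, mock-infected or infected with cDNA-derived HRV-14 at m.o.i. 0.13. CC50 divided by EC50 gives the therapeutic index.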

Drawing on US6362166B1, “Antipicornaviral compounds and methods for their use and preparation” (Agouron Pharmaceuticals, Inc., priority 1996, dated 2002), this text covers TI for 22 compounds.

With `CON(C)C(=O)/C=C/[C@H](CCC(N)=O)NC(=O)[C@H](Cc1ccccc1)NC(=O)[C@H](CC(C)C)NC(=O)OCc1ccccc1` [Compound 37], the figures for the TI in data set [1] and in data set [2] were over 5.6 and over 25, respectively.
The like results for `CC(C)C[C@H](NC(=O)OCc1ccccc1)C(=O)N[C@@H](Cc1ccccc1)C(=O)N[C@H](/C=C/C(=O)c1ccccc1)CCC(N)=O` [Compound 24, 1-Phenyl-3-(CBZ-L-Leu-L-Phe-L-Gln)-E-Propenone] were, in that order, 1 and 4.
The like results for `CC(C)C[C@H](NC(=O)OCc1ccccc1)C(=O)N[C@@H](Cc1ccccc1)C(=O)N[C@H](/C=C/C(=O)N1CCCC1)CCC(N)=O` [Compound 21, 1-Pyrrolidin-1-yl-3-(CBZ-L-Leu-L-Phe-L-Gln)-E-Propenone] were, in that order, over 2 and over 5.
The like results for `CCOC(=O)/C=C/[C@H](CCC(N)=O)NC(=O)[C@H](Cc1ccccc1)NC(=O)[C@H](CC(C)C)NC(=O)OCc1ccccc1` [Compound 3, Ethyl-3-(CBZ-L-Leu-L-Phe-L-Gln)-E-Propenoate] were, in that order, over 8 and over 525.
As to `COC(=O)/C=C/[C@H](CCC(N)=O)NC(=O)[C@H](Cc1ccccc1)NC(=O)[C@H](CC(C)C)NC(=O)OCc1ccccc1` [Compound 11, Methyl-3-(CBZ-L-Leu-L-Phe-L-Gln)-E-Propenoate], the TI in data set [1] is over 35; in data set [2] it was over 246.
The corresponding values for `CCOC(=O)/C=C/[C@H](CCC(N)=O)NC(=O)[C@H](Cc1ccc(F)cc1)NC(=O)c1cc2c(OC)cccc2[nH]1` [Compound 27] are over 5 and 46.
On to `CC(C)C[C@H](NC(=O)OCc1ccccc1)C(=O)N[C@@H](Cc1ccccc1)C(=O)N[C@H](/C=C/C(=O)N1CC=CC1)CCC(N)=O` [Compound 41], for which, in data set [2], the TI amounted to 1.
On the same count and under the same terms, to `CCOC(=O)/C=C/C(CCC(N)=O)NC(=O)C(Cc1ccc(Cl)cc1)NC(=O)c1cc2c(OC)cccc2n1C(c1ccccc1)(c1ccccc1)c1ccccc1` [Compound 29, Ethyl-3-[N-(1-Tr-4-Methoxyindole-2-Carbonyl)-L-(4-Cl-Phe)-L-Gln]-E-Propenoate] belongs 19.
Compound `CCOC(=O)/C=C/[C@H](CCC(N)=O)NC(=O)[C@H](Cc1ccc(CO)cc1)NC(=O)[C@H](CC(C)C)NC(=O)OCc1ccccc1` [Compound 114] gave a TI in data set [2] of over 582.
The same measure, in the same setting: to `CCOC(=O)/C=C/[C@H](CCC(N)=O)NC(=O)[C@H](Cc1ccc(F)cc1)NC(=O)[C@H](CC(C)C)NC(=O)OCc1ccccc1` [Compound 35, Ethyl-3-[CBZ-L-Leu-L-(4-F-Phe)-L-Gln]-E-Propenoate] belongs over 178.
The same measure, in the same setting: to `Cc1cc(CCCCCCCOc2ccc(C3=NCCO3)cc2)on1` [WIN 51711, reference compound] belongs over 77; to `CCOC(=O)/C=C/[C@H](CCC(N)=O)NC(=O)[C@H](Cc1ccccc1)NC(=O)[C@H](CC(C)C)NC(=O)SC` [Compound 119], over 291; to `CC(C)C[C@H](NC(=O)OCc1ccccc1)C(=O)N[C@@H](Cc1ccccc1)C(=O)N[C@H](/C=C/C(=O)N1CCc2cc([N+](=O)[O-])ccc21)CCC(N)=O` [Compound 86], over 19.
Same read-out and setting: to `CCOC(=O)/C=C/[C@H](COC(N)=O)NC(=O)[C@H](Cc1ccccc1)NC(=O)[C@H](CC(C)C)NC(=O)OCc1ccccc1` [Compound 56] belongs over 203; to `CC(C)C[C@H](NC(=O)OCc1ccccc1)C(=O)N[C@@H](Cc1ccccc1)C(=O)N[C@H](/C=C/C(=O)OC(C)C)CCC(N)=O` [Compound 17, Isopropyl-3-(CBZ-L-Leu-L-Phe-L-Gln)-E-Propenoate], over 56; to `CCCS(=O)(=O)N[C@@H](Cc1ccccc1)C(=O)N[C@H](/C=C/C(=O)OCC)CCC(N)=O` [Compound 31, Ethyl-3-[N-(Propylsulfonyl)-L-Phe-L-Gln]-E-Propenoate], over 2.
Regarding `CCOC(=O)/C=C/[C@H](CCC(N)=O)NC(=O)[C@H](Cc1ccccc1)NC(=O)[C@H](CC(C)C)NC(=O)SCC` [Compound 120], in data set [2], the TI is listed as over 695.
The same measure, in the same setting: to `CC(C)C[C@H](NC(=O)OCc1ccccc1)C(=O)N[C@@H](Cc1ccccc1)C(=O)N[C@H](/C=C/C(=O)N1CCCCO1)CCC(N)=O` [Compound 84] belongs over 20; to `CCOC(=O)/C=C/[C@H](CCC(N)=O)NC(=O)[C@H](Cc1ccccc1)NC(=O)[C@H](CC(C)C)NC(=O)CSc1ccccn1` [Compound 118], over 18; to `CCOC(=O)/C=C/[C@H](CCC(N)=O)NC(=O)[C@H](Cc1ccc(O)cc1)NC(=O)[C@H](CC(C)C)NC(=O)OCc1ccccc1` [Compound 53], over 60.
Still for that read-out and setting: to `CC(C)C[C@H](NC(=O)OCc1ccccc1)C(=O)N[C@@H](Cc1ccccc1)C(=O)N[C@H](/C=C/C(=O)N1CCOC1=O)CCC(N)=O` [Compound 62] belongs over 63; to `CC(C)C[C@H](NC(=O)OCc1ccccc1)C(=O)N[C@@H](Cc1ccccc1)C(=O)N[C@H](/C=C/C(=O)N1CCc2cc(F)ccc21)CCC(N)=O` [Compound 87], over 30.
